What was measured:
Hepatocyte [1] = assay: Cytotoxicity against primary human hepatocytes assessed as cell viability after 48 hrs by MTS assay; format: cell-based
[2] = Cytotoxicity against MDCK2-MDR1 cells assessed as cell viability after 24 hrs by MTS assay; conditions: mdck-ii
HeLa [3] = assay: Cytotoxicity against human HeLa cells assessed as cell viability at 20 uM after 24 hrs by MTS assay; format: cell-based
Salmonella typhimurium [4] = assay: Mutagenic activity in Salmonella typhimurium TA100 assessed as reverse mutation at 30 uM by Ames test; conditions: salmonella enterica subsp. enterica serovar typhimurium
Hepatocyte [5] = assay: Cytotoxicity against primary human hepatocytes assessed as cell viability at 20 uM after 48 hrs by MTS assay; format: cell-based
[6] = Cytotoxicity against human HuH7 cells assessed as cell viability at 20 uM after 48 hrs by MTS assay; format: cell-based; conditions: huh-7, 48 h
[7] = Cytotoxicity against MDCK2-MDR1 cells assessed as cell viability at 20 uM after 24 hrs by MTS assay; conditions: dog, mdck-ii
[8] = Cytotoxicity against MDCK2-MDR1 cells assessed as cell viability after 48 hrs by MTS assay; conditions: mdck-ii
HeLa [9] = assay: Cytotoxicity against human HeLa cells assessed as cell viability after 48 hrs by MTS assay; format: cell-based
HeLa [10] = assay: Cytotoxicity against human HeLa cells assessed as cell viability at 20 uM after 48 hrs by MTS assay; format: cell-based
[11] = Cytotoxicity against human HuH7 cells assessed as cell viability after 48 hrs by MTS assay; format: cell-based; conditions: huh-7
[12] = Cytotoxicity against MDCK2-MDR1 cells assessed as cell viability at 20 uM after 48 hrs by MTS assay; conditions: dog, mdck-ii
HeLa [13] = assay: Cytotoxicity against human HeLa cells assessed as cell viability after 24 hrs by MTS assay; format: cell-based
[14] = Cytotoxicity against human HuH7 cells assessed as cell viability after 24 hrs by MTS assay; format: cell-based; conditions: huh-7
[15] = Cytotoxicity against human HuH7 cells assessed as cell viability at 20 uM after 24 hrs by MTS assay; format: cell-based; conditions: huh-7, 24 h
Salmonella typhimurium [16] = assay: Mutagenic activity in Salmonella typhimurium TA98 assessed as reverse mutation at 30 uM by Ames test; conditions: salmonella enterica subsp. enterica serovar typhimurium

| Compound | IC50 (Hepatocyte [1]) | IC50 [2] | Activity (HeLa [3]) | Activity (Salmonella typhimurium [4]) | Activity (Hepatocyte [5]) | Activity [6] | Activity [7] | IC50 [8] | IC50 (HeLa [9]) | Activity (HeLa [10]) | IC50 [11] | Activity [12] | IC50 (HeLa [13]) | IC50 [14] | Activity [15] | Activity (Salmonella typhimurium [16]) |
| --- | --- | --- | --- | --- | --- | --- | --- | --- | --- | --- | --- | --- | --- | --- | --- | --- |
| O=[N+]([O-])c1ccc(-c2nnc(SCc3cc([N+](=O)[O-])cc([N+](=O)[O-])c3)o2)cc1 | > 20 µM | > 20 µM | 93.6% | Toxic | 107% | 111% | 82% | > 20 µM | > 20 µM | 109% | > 20 µM | 97.4% | > 20 µM | > 20 µM | 101% | Non-toxic |
| O=[N+]([O-])c1ccc(-c2nnc(SCc3cc([N+](=O)[O-])cc([N+](=O)[O-])c3)s2)cc1 | – | > 20 µM | 89.2% | – | – | 97.9% | 75% | > 20 µM | > 20 µM | 120% | > 20 µM | 104% | > 20 µM | > 20 µM | 99.5% | – |
| O=[N+]([O-])c1ccc(-c2nnc(SCc3ccc([N+](=O)[O-])cc3[N+](=O)[O-])o2)cc1 | – | > 20 µM | 90.1% | – | – | 99.6% | 85.2% | > 20 µM | > 20 µM | 117% | > 20 µM | 120% | > 20 µM | > 20 µM | 107% | – |

From ChEMBL document CHEMBL3797190, “Development of 3,5-Dinitrobenzylsulfanyl-1,3,4-oxadiazoles and Thiadiazoles as Selective Antitubercular Agents Active Against Replicating and Nonreplicating Mycobacterium tuberculosis” (J Med Chem, 2016)
